According to patent publication US5629198A (priority 1991, dated 1997):

Columns and labels:
[1] = tested on: mixed culture of Molt-4/C18 cells and Molt-4/IIIB cells; test: Inhibiting effect on formation of multinucleated giant cells, mixed culture (Test Example 8 (1)); format: cell-based, human; settings: mixed culture system and cell-free system
Protocol: (1) The inhibiting effects of test substances on the formation of multinucleated giant cells in a mixed culture system of Molt-4/C18 cells and Molt-4/IIIB cells were investigated.
Molt-4/C18 cells in a logarithmic growth phase were inoculated in a proportion of 2.5×10^4 cells/well (25 μl) on a 96-well flat-bottom plate. Similarly, Molt-4/HTL-VIIIB cells in a logarithmic growth phase were inoculated in a proportion of 0.5×10^4 cells/well (25 μl) on the same plate. Then, solutions of the test substances in various concentrations were separately added in an amount of 50 μl, followed by their culture at 37° C. under conditions of 5% CO2. To wells for a positive control, 50 μl of a culture medium were added in place of the solution of each test substance. To wells for a negative control, 3×10^4 cells/well (50 μl) of Molt-4/C18 cells and 50 μl of the culture medium instead of the solution of each test substance were added. Defining the day the culture was started as Day 0, the culture was continuously conducted for 3 days to observe a state of formation of multinucleated giant cells on Day 3 through a microscope. The state of formation of multinucleated giant cells was evaluated by scoring by 6 ranks with the negative control and the positive control ranked as (-) and (+++++), respectively. […]

male ICR mice = test: One-administration toxicity test, intravenous (Test Example 9); format: in vivo
Protocol: A specimen was dissolved at a protein concentration of 100 mg/ml in a physiological saline (pH 7.0), and the solution was sterilely filtered through a membrane filter of 0.22 μm. The filtrate was intravenously administered to male ICR mice (Charles River Japan, Inc.) aged 5 weeks and 5 days through their tail veins. Doses of 690, 830, 1,000, 1,200 and 1,440 mg/kg were used in each group consisting of 5 mice. Defining the day of the administration as 0 day, their weights were measured on the second, fourth, seventh, tenth and fifteenth days. As a control, a group consisting of 5 mice given with no specimen was used.
In each of the toxicity tests, organ autopsy was conducted to all the mice on the fifteenth day after the administration.

MOLT-4 [2] = test: Killing effect on uninfected cells (Test Example 1), trypan blue; format: cell-based, human; settings: 3 days
Protocol: The cell killing effects of test substances were determined using a cell strain persistently infected with HIV in MOLT-4 cells and MOLT-4 cells.
MOLT4/HTLV-IIIB, MOLT4/ARV and MOLT4 cell strains were separately inoculated in proportions of 4×10^4 cells/well (200 μl) on a 96-well plate, and the above test substances in various concentrations were separately added in an amount of 20 μl thereto. After each cell sample was cultured for 3 days at 37° C. in the presence of 5% CO2, the culture was diluted to a triple or quadruple amount, thereby counting the number of living cells by a trypan blue dye exclusion test. As a control, 20 μl of PBS were added in place of each test substance. Each numerical value is expressed in terms of the percentage of living cells to the control.

MOLT-4 [3] = test: Killing effect (Test Example 2); format: cell-based, human; settings: 24 hours then 2 days, 4320 min
Protocol: (§1) The killing effect and cytotoxic effect of a test substance were determined using human peripheral blood lymphocytes and MOLT-4 cells.
(§2) After MOLT-4/HTLV-IIIB cells and MOLT-4 cells were dosed with S-HSA-EDC-Hemin in various concentrations and cultured for 24 hours, S-HSA-EDC-Hemin was removed, and the cells were cultured further for 2 days to count the number of living cells.

MOLT-4/HTLV-IIIB = test: Killing effect (Test Example 2); format: cell-based, human; settings: 24 hours then 2 days, 4320 min
Protocol: as §1, §2

[4] = tested on: human peripheral blood lymphocytes (PBL), nonactivated; test: Cytotoxic effect on nonactivated PBL (Test Example 2); format: cell-based; settings: 4 days
[5] = tested on: human peripheral blood lymphocytes (PBL), activated; test: Cytotoxic effect on activated PBL (Test Example 2); format: cell-based; settings: 24 hours then 2 days, 4320 min
Protocol: as §1
Human peripheral blood lymphocytes (PBL) were separated by a Ficol. Part of them were activated and the remainder was used without activation. The activation of PBL was conducted by culturing PBL (7×10^5 /ml/10 ml) for 4 days in the presence of IL-2 and phytohaemagglutinin (PHA) in a 25-cm^2 culture flask. After the activated PBL was adjusted to 4×10^5 /ml/10 ml and placed in a 25-cm^2 culture flask, 0.5 ml of the specimen solution was given in such a manner that the final concentration of S-HSA-EDC-Hemin reached a predetermined concentration, thereby culturing the cells for 24 hours. Thereafter, S-HSA-EDC-Hemin was removed, and the cells were cultured further for 2 days to count the number of living cells by the Trypan Blue dye exclusion method. With respect to the nonactivated PBL, PBL separated by Ficol was cultured for 4 days in the presence of S-HSA-EDC-Hemin in the various concentrations to count the number of living cells.

For “S--HSA--EDC-Hemin: complex of succinylated human serum albumin and EDC-Hemin”, the “effect of inhibiting the adsorption and infection of HIV” value [1] was “have an effect of inhibiting the adsorption and infection of HIV”, the “Morality (number of mice died/number of mice used)” value (male ICR mice; intravenous, 690 mg/kg) was 0/5 and the “Morality (number of mice died/number of mice used)” value (male ICR mice; intravenous, 830 mg/kg) was 0/5. The “Morality (number of mice died/number of mice used)” value (male ICR mice; intravenous, 1,000 mg/kg) was 0/5, the “Morality (number of mice died/number of mice used)” value (male ICR mice; intravenous, 1,200 mg/kg) was 0/5 and the “Morality (number of mice died/number of mice used)” value (male ICR mice; intravenous, 1,440 mg/kg) was 1/5. For the same substance, the “dose showing no toxicity” value (male ICR mice; intravenous, single, 21600 min) was ≤ 1,200 mg/kg, the changes in weight (male ICR mice; single administration, doses of no toxicity (iv, ip, oral)) was “No abnormality” and the “living cells (percentage to the control)” value (MOLT-4 [2]; 37.9 μg/ml) was 104%. The “living cells (percentage to the control)” value (MOLT-4 [2]; 75.8 μg/ml) was 45%, the “living cells (percentage to the control)” value (MOLT-4 [2]; 113.7 μg/ml) was 2% and the “living cells (control 100%)” value (MOLT-4 [3]; 75.8 μg/ml) was 6%. The “living cells (control 100%)” value (MOLT-4 [3]; 151.6 μg/ml) was 0%, the “living cells (control 100%)” value (MOLT-4 [3]; 303.2 μg/ml) was 0% and the “living cells (control 100%)” value (MOLT-4 [3]; 606.4 μg/ml) was 0%. For the same substance, the “living cells (control 100%)” value (MOLT-4/HTLV-IIIB; 75.8 μg/ml) was 3%, the “living cells (control 100%)” value (MOLT-4/HTLV-IIIB; 151.6 μg/ml) was 0% and the “living cells (control 100%)” value (MOLT-4/HTLV-IIIB; 303.2 μg/ml) was 0%. For the same substance, the “living cells (control 100%)” value (MOLT-4/HTLV-IIIB; 606.4 μg/ml) was 0%, the “living cells (control 100%)” value ([4]; 37.9 μg/ml) was 98% and the “living cells (control 100%)” value ([4]; 75.8 μg/ml) was 70%. The “living cells (control 100%)” value ([4]; 151.6 μg/ml) was 70%, the “living cells (control 100%)” value ([4]; 606.4 μg/ml) was 22% and the “living cells (control 100%)” value ([5]; 37.9 μg/ml) was 88%. The “living cells (control 100%)” value ([5]; 75.8 μg/ml) was 91%, the “living cells (control 100%)” value ([5]; 151.6 μg/ml) was 81% and the “living cells (control 100%)” value ([5]; 227.4 μg/ml) was 77%. The “living cells (control 100%)” value ([5]; 303.2 μg/ml) was 29%.
